{"source": "PubChem BioAssay AID504761 (Drosophila RNAi Screening Center, 2011)", "aim": "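Insect host genes that dengue virus relies on to spread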 (primary screen)", "cell system": "D.Mel-2 cells from Drosophila", "knock-down reagent": "long dsRNA against Drosophila genes", "conditions": "infection with dengue virus type 2; dose and infection time not stated", "measurement": "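Per well on two replicate plates, imaging gave the percent of cells positive for viral envelope protein, ranked by infection, and a nuclear count of cells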", "direction": "infection score: higher = more virus-infected cells; cell count: higher = more cells in the well", "active means": "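Very low infection ranking in both replicate wells (chance probability at most 0.065), then a retest showing infection dropped 1.5-fold or more at p below 0.05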", "meaning of the calls": "active = confirmed: knock-down lowers infection; inactive = not picked or not confirmed", "note": "The deposit covers about 22,000 reagents; below is an unselected part of those with a known target gene and a result. Over the whole deposit, 116 (0.52%) were called active. 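Calls depend on retest data that are not deposited; infection was ranked per plate without normalising between plates; the unit of the infection score is not given.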 The raw values are shown without normalisation. Entries without a mark were called inactive. Reagents against one gene are numbered here. Not all columns of the deposit are shown. Not given: the amount of reagent, the time to read-out."}
{"target gene": "p38c (GeneID 2768679)", "dsRNA no.": 1, "infection score, replicate 1": 0.72, "cell count, replicate 1": 6645}
{"target gene": "nvy (GeneID 37886)", "dsRNA no.": 1, "infection score, replicate 1": 22.3, "cell count, replicate 1": 6205}
{"target gene": "CG13670 (GeneID 38938)", "dsRNA no.": 1, "infection score, replicate 1": 2.27, "cell count, replicate 1": 6074}
{"target gene": "CG13670 (GeneID 38938)", "dsRNA no.": 2, "infection score, replicate 1": 11.9, "cell count, replicate 1": 4054}
{"target gene": "CG8245 (GeneID 35503)", "dsRNA no.": 1, "infection score, replicate 1": 0.94, "cell count, replicate 1": 6288}
{"target gene": "GstE10 (GeneID 37105)", "dsRNA no.": 1, "cell count, replicate 1": 486}
{"target gene": "GstE10 (GeneID 37105)", "dsRNA no.": 2, "infection score, replicate 1": 16.9, "cell count, replicate 1": 3333}
{"target gene": "Lgr3 (GeneID 43098)", "dsRNA no.": 1, "infection score, replicate 1": 6.34, "cell count, replicate 1": 5488}
{"target gene": "Lgr3 (GeneID 43098)", "dsRNA no.": 2, "infection score, replicate 1": 9.79, "cell count, replicate 1": 5630}

Only “cell count, replicate 1”, for 2 of the entries above:
Lgr3 (GeneID 43098) #1 = 5488
Lgr3 (GeneID 43098) #2 = 5630

The listing continues.
{"target gene": "CG30379 (GeneID 246578)", "dsRNA no.": 1, "infection score, replicate 1": 3.06, "cell count, replicate 1": 6569}
{"target gene": "Eps-15 (GeneID 37961)", "dsRNA no.": 1, "infection score, replicate 1": 2.1, "cell count, replicate 1": 6346}
{"target gene": "Jheh2 (GeneID 37181)", "dsRNA no.": 1, "infection score, replicate 1": 2.78, "cell count, replicate 1": 6252}
{"target gene": "Jheh2 (GeneID 37181)", "dsRNA no.": 2, "infection score, replicate 1": 14.7, "cell count, replicate 1": 5409}
{"target gene": "Pcl (GeneID 37069)", "dsRNA no.": 1, "infection score, replicate 1": 19.2, "cell count, replicate 1": 5396}
{"target gene": "Pcl (GeneID 37069)", "dsRNA no.": 2, "infection score, replicate 1": 11.9, "cell count, replicate 1": 6072}
{"target gene": "CDK2AP1 (GeneID 32050)", "dsRNA no.": 1, "infection score, replicate 1": 2.02, "cell count, replicate 1": 6690}
{"target gene": "CDK2AP1 (GeneID 32050)", "dsRNA no.": 2, "infection score, replicate 1": 1.35, "cell count, replicate 1": 5912}
{"target gene": "Pdss2 (GeneID 40323)", "dsRNA no.": 1, "infection score, replicate 1": 8.61, "cell count, replicate 1": 6658}
{"target gene": "PGRP-LA (GeneID 39062)", "dsRNA no.": 1, "infection score, replicate 1": 1.69, "cell count, replicate 1": 6279}
{"target gene": "PGRP-LA (GeneID 39062)", "dsRNA no.": 2, "infection score, replicate 1": 2.17, "cell count, replicate 1": 6170}
{"target gene": "CG13801 (GeneID 38299)", "dsRNA no.": 1, "infection score, replicate 1": 1.11, "cell count, replicate 1": 6846}
